Values quoted from earlier work in PMC8184532 (European Journal of Clinical Pharmacology, 2021).

Settings: coadministered with ritonavir-boosted darunavir and etravirine vs maraviroc alone

For maraviroc, the “increase in maraviroc exposure” value is listed as 3 fold.
